Laboratory results: publication PMC9603561, “Anticoagulants as Potential SARS-CoV-2 M^pro Inhibitors for COVID-19 Patients: In Vitro, Molecular Docking, Molecular Dynamics, DFT, and SAR Studies” (International Journal of Molecular Sciences, 2022)

System: SARS-CoV-2 (hCoV-19/Egypt/NRC-03/2020)
Test: Crystal violet assay, SARS-CoV-2 inhibitory assay (cell-based)
Settings: SI = CC50/IC50, Vero E6 cells

Row | Compound | Safety Index (SI) | Safety Index (SI) (listed as dabigatran) | Safety Index (SI) (listed as heparin) | Safety Index (SI) (listed as fondaparinux sodium)
1 | CCCSc1nc(N[C@@H]2C[C@H]2c2ccc(F)c(F)c2)c2nnn([C@@H]3C[C@H](OCCO)[C@@H](O)[C@H]3O)c2n1 [Ticagrelor, ticagrelor] | 25.33 |  |  | 
2 | [H]/N=C(/N)c1ccc(NCc2nc3cc(C(=O)N(CCC(=O)O)c4ccccn4)ccc3n2C)cc1 [Dabigatran, dabigatran] | 15.10 | 15.1 |  | 
3 | heparin | 2.47 |  | 2.474 | 
4 | CO[C@H]1O[C@H](COS(=O)(=O)O)[C@@H](O[C@@H]2O[C@@H](C(=O)O)[C@@H](O[C@H]3O[C@H](COS(=O)(=O)O)[C@@H](O[C@@H]4O[C@H](C(=O)O)[C@@H](O[C@H]5O[C@H](COS(=O)(=O)O)[C@@H](O)[C@H](O)[C@H]5NS(=O)(=O)O)[C@H](O)[C@H]4O)[C@H](OS(=O)(=O)O)[C@H]3NS(=O)(=O)O)[C@H](O)[C@H]2OS(=O)(=O)O)[C@H](O)[C@H]1NS(=O)(=O)O [Fondaparinux sodium, fondaparinux sodium] | 17.60 |  |  | 17.6
